Measurements published in PubChem BioAssay AID504834 (National Center for Advancing Translational Sciences (NCATS), 2011).
This is a selection; strong and weak results do not stand in their true shares. Records with an inconclusive call do not appear. Activity calls are given as the source filed them. Calls follow the shape of the dose curve; as a rule, active = well fitted inhibition curve with a large enough effect; inconclusive = small, poorly fitted or top-dose-only effect, or another doubt; inactive = no such curve, though single readings can be large or run the other way.

assay: Primary qHTS for delayed death inhibitors of the malarial parasite plastid, 96 hour incubation; conditions: P. falciparum luciferase reporter growth; series mostly up to 28.7 µM; activity change, negative = inhibition: at the top concentration
% is scaled to controls: 0 for no effect and ±100 for the full control effect; potency is read from the fitted curve at half-maximal effect.

Structure (SMILES) | Potency | activity change, negative = inhibition
CP(=O)(Nc1ccc(SC(F)(F)F)cc1)Oc1ccccc1 (centres undefined) | active: 1.31 µM | –
CCCOc1ccc(NP(C)(=O)Oc2ccc(Cl)cc2)cc1 (centres undefined) | active: 1.31 µM | –
CN(C)C1(CNC(=O)c2ccc(S(C)(=O)=O)cc2)CCCCC1 | – | inactive: 35.5%
C=C(C=O)CC1CC(O)[C@]2(C)OC3C[C@@H]4OC5C[C@]6(C)O[C@]7(C)CCC8OC9C[C@]%10(C)OC(/C(C)=C\CO)C(O)CC%10OC9CC(C)C8OC7CC6O[C@]5(C)C/C=C\C4OC3CC2O1 (some centres undefined) | active: 9.28 µM | –
CCN(CC)CCCOC(=O)C(O)(c1ccccc1)c1ccccc1 | – | inactive: 6.13%
CP(=O)(NC(=O)Nc1ccccc1)Oc1ccccc1 (centres undefined) | active: 7.38 µM | –
CP(=O)(Nc1ccc(Cl)cc1)Oc1ccc(F)cc1 (centres undefined) | active: 0.586 µM | –
O=C(OCCCN1CCCC1)C(O)(c1ccccc1)C1CCCCC1 (centres undefined) | – | inactive: -19.5%
CP(=O)(Nc1ccc(Cl)cc1Cl)Oc1ccccc1 (centres undefined) | active: 2.08 µM | –
Cc1cc(C)cc(OP(C)(=O)Nc2cccc(C(F)(F)F)c2)c1 (centres undefined) | active: 8.28 µM | –
COc1ccccc1OP(C)(=O)Nc1ccc(C)c(C)c1 (centres undefined) | active: 4.65 µM | –
CC(C)c1ccc(OP(C)(=O)Nc2ccc(SC(F)(F)F)cc2)cc1 (centres undefined) | active: 4.65 µM | –
O=[N+]([O-])c1ccc(OP2(=O)COCCO2)cc1 (centres undefined) | – | inactive: 45.9%
CN(C)C1(CNC(=O)c2ccc(Cl)c(S(N)(=O)=O)c2)CCCCC1 | – | inactive: 23.4%
